Data published in US8546083B2, “Molecular accessibility assay” (University of Vermont, priority 2007, dated 2013).

B1: EcoFpg: Escherichia coli formamidopyrimidine-DNA glycosylase, purified recombinant enzyme preparation (protein, UniProt P05523 2-269, looked up)
Formamidopyrimidine-DNA …: PELPEVETSRRGIEPHLVGATILHAVVRNGRLRWPVSEEIYRLSDQPVLSVQRRAKYLLLELPEGWIIIHLGMSGSLRILPEELPPEKHDHVDLVMSNGKVLRYTDPRRFGAWLWTKELEGHNVLTHLGPEPLSDDFNGEYLHQKCAKKKTAIKPWLMDNKLVVGVGNIYASESLFAAGIHPDRLASSLSLAECELLARVIKAVLLRSIEQGGTTLKDFLQSDGKPGYFAQELQVYGRKGEPCRVCGTPIVATKHAQRATFYCRQCQK
B2: EcoNth: Escherichia coli endonuclease III, purified recombinant enzyme preparation (protein, UniProt P0AB83 1-211, looked up)
Endonuclease III: MNKAKRLEILTRLRENNPHPTTELNFSSPFELLIAVLLSAQATDVSVNKATAKLYPVANTPAAMLELGVEGVKTYIKTIGLYNSKAENIIKTCRILLEQHNGEVPEDRAALEALPGVGRKTANVVLNTAFGWPTIAVDTHIFRVCNRTQFAPGKNVEQVEEKLLKVVPAEFKVDCHHWLILHGRYTCIARKPRCGSCIIEDLCEYKEKVDI

Tested on: 35DHU substrate
Assay: Gel-based Schiff base trapping assay (SDS-PAGE, PhosphorImager), active fraction determination
Assay type: biochemical
Description: Oligonucleotide substrates were purchased from Midland Certified Reagent Co. (Midland, Tex.) and were PAGE purified prior to use. All gel-based comparisons were performed with the following double stranded substrate: (35DHU) 5′-TET-tgtcaatagcaagnggagaagtcaatcgtgagtct-3′ (SEQ ID NO:1) where TET represents the fluorescent label 6-tetrachlorofluorescein and n=5,6-dihydrouracil (DHU). […]
For gel-based substrates, completed reactions were mixed with a dye-free SDS loading buffer (50 mM Tris-HCl (pH 6.8), 100 mM dithiothreitol, 4% SDS, 10% glycerol), heated to 90° C. for 5 minutes, separated by 12% SDS-PAGE, and visualized by PhosphorImager analysis (Bio-Rad Molecular Imager FX) (Bio-Rad Laboratories, Hercules, Calif.). For all other substrates, an equal volume of 200 nM DAPI in 10 mM Tris-HCl (pH 8.0) and 50 mM NaCl was added and incubated for 5 minutes at room temperature prior to fluorescence detection. Final concentrations of the fluorescence effecting molecules at the time of detection in these experiments were 100 nM DAPI, 50 nM substrate, and 25-800 nM enzyme. […]

Molecule | β value (fraction of cleavable substrate)
B1 | approximately 0.8
B2 | approximately 0.8
